This is an account of results in US20250387458A1, “COACTIVE COMBINATIONS OF ANTIMICROBIALS WITH DISPERSINB” (KANE BIOTECH INC., priority 2020, published 2025).

Structures are written as SMILES. Structures can show the parent of a compound that is named as a salt.

The test system of data set [1] is DspB. Put plainly: Compatibility between antimicrobials or antibiotics and DspB, enzymatic assay in buffer (Method 4). Format: biochemical, Aggregatibacter actinomycetemcomitans. Conditions: 100 μg/mL DspB; for Time DspB was active in the presence of the antimicrobial, enzymatic assay: antimicrobial concentration per figure legend. The protocol:
Method 4: Method to Test Compatibility Between Antimicrobials or Antibiotics and DspB Using Enzymatic Assay
DspB (200 μg/mL) and antimicrobial agent/antibiotic stocks were prepared in respective buffers. 10 mM paranitrophenol (PNP) in 400 mM sodium carbonate, and the buffer (same DspB stock) was used as the standard solution, and negative control, respectively. DspB stock and antimicrobial stock were mixed in equal proportions, and then 4×5 μl samples were taken at defined time points (0, 5, 10, 20, 30, 60, and 120 min) and used to measure the DspB enzyme activity. DspB enzymatic activity was measured using β-N-Acetylglucosaminidase assay kit from Sigma (product code CS0780) in 96-well microtiter plate following the manufacturer's instructions. The plate was incubated for 30 minutes before terminating the reaction. Data analysis was done in Excel. Student T test (paired) was performed for each time point separately using DspB activity in mixture and in control sample as two set of variables.

Data set [2] concerns DspB. Put plainly: Compatibility between antimicrobials or antibiotics and DspB in gel, enzymatic assay (Method 6). Format: biochemical, Aggregatibacter actinomycetemcomitans. Conditions: PF127 wound gel; 100 μg/mL DspB. The protocol: Method 6: Method to Test Compatibility Between Antimicrobials or Antibiotics and DspB in Gel Using Enzymatic Assay
DspB gel containing 200 μg/ml DspB, 16% […] (PF127), 50 mM Phosphate buffer or citrate, 100 mM NaCl, pH 5.9, and 2× concentrated antimicrobial agent/antibiotics in 16% Poloxamer 405, 50 mM Phosphate buffer, 100 mM NaCl, pH 5.9 were mixed in equal proportions. 4×5 μL aliquots were withdrawn at 0, 5, 10, 20, 30, 60, and 120 min for measurement of DspB enzymatic activity. DspB enzymatic activity was measured using β-N-acetylglucosaminidase assay kit from Sigma (product code CS0780) in 96-well microtiter plate following the manufacturer's instructions. The plate was incubated for 30 minutes before terminating the reaction. Data analysis was done in Excel. Student T test (paired) was performed for each time point separately using DspB activity in mixture and in control sample as two set of variables. […]

The subject of data set [3] is S. epidermidis biofilm. Put plainly: Compatibility between antimicrobials or antibiotics and DspB, biofilm dispersal assay in buffer (Method 3). It counts as cell-based, Staphylococcus epidermidis. Conditions: mixture stored at 37° C., 20 μg/ml DspB, antimicrobial concentration per figure legend. The procedure:
Method 3: Method to Test Compatibility Between Antimicrobials or Antibiotics and DspB Using Biofilm Dispersal Assay
S. epidermidis biofilm was grown in 96-well plate and washed three times using sterile water to remove planktonic cells. Antimicrobials or antibiotics and DspB formulations were prepared in 50 mM phosphate or citrate buffer and stored at 37° C. for 2 h and used for treating biofilm at 0 and 2 h. Biofilm was treated using antimicrobials or antibiotics and DspB formulations for 10 min. After treatments, solutions were removed and washed 3 times to remove dispersed biofilm. Remaining biofilms in 96-well plates were stained using Crystal violet, unbound crystal violet was removed by washing the wells with sterile water, the biofilm bound crystal violet was eluted using 33% acetic acid, and the absorbance at 620 nm was taken using a microwell plate reader. Percent biofilm removal was calculated. Data was analyzed using ANOVA and Tukey's test.

On to `CCCCCCCCN=c1ccn(CCCCCCCCCCn2ccc(=NCCCCCCCC)cc2)cc1.Cl.Cl` [Octenidine dihydrochloride, octenidine dihydrochloride], for which the “Time by which DspB lost its activity in the presence of the antimicrobial, enzymatic assay” value in data set [1] is no more than 2 h. Further, the “Time DspB was active in the presence of the antimicrobial, enzymatic assay” value (from here on “Time DspB was active in the presence”) in data set [1] and in data set [2] was “up to 2 h” in each case.

On to `C/C(=C\C(=O)OCCCCCCCCC(=O)O)C[C@@H]1OC[C@H](C[C@@H]2O[C@H]2[C@@H](C)[C@H](C)O)[C@@H](O)[C@H]1O` [Mupirocin], for which the “Time DspB was active in the presence” value in data set [1] and in data set [2] was “up to 2 h” throughout.

Consider `CO[C@H]1/C=C/O[C@@]2(C)Oc3c(C)c(O)c4c(O)c(c(/C=N/N5CCN(C6CCCC6)CC5)c(O)c4c3C2=O)NC(=O)/C(C)=C\C=C\[C@H](C)[C@H](O)[C@@H](C)[C@@H](O)[C@@H](C)[C@H](OC(C)=O)[C@@H]1C` [rifapentine], for which, in data set [1], the “Time DspB was active in the presence” value is listed as “up to 2 h”.

Turning to `CNC1C(O)[C@@H](O[C@H]2C(N)C[C@H](N)C(O[C@H]3OC([C@@H](C)N)CCC3N)C2O)OC[C@]1(C)O` (stereo partly shown) [Gentamicin sulfate], the “Time DspB was active in the presence” value in data set [1] and in data set [2] was “up to 2 h” throughout. In addition, the “Time DspB retained its activity in the presence of the antimicrobial, biofilm dispersal assay” value is recorded as “up to 2 h” in data set [3] and no more than 2 h in data set [3] (listed as gentamicin sulfate).

With `Cc1ncc([N+](=O)[O-])n1CCO` [Metronidazole], the “Time DspB was active in the presence” value in data set [1] and in data set [2] was “up to 2 h” in each case. The “Time DspB retained its activity in the presence of the antimicrobial, biofilm dispersal assay” value in data set [3] was “up to 2 h”.
